Data as given in PubChem BioAssay AID504761 (Drosophila RNAi Screening Center, 2011)
Aim: 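Fly genes whose silencing reduces dengue virus type 2 infection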 (primary screen). System: D.Mel-2 cells from Drosophila. Knock-down reagent: long dsRNA against Drosophila genes. Challenge: infection with dengue virus type 2; dose and infection time not stated. Detection: 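Cells stained for dengue envelope protein and imaged; percent of infected cells per well on duplicate plates, ranked by infection, with stained nuclei counted for cell number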. Reading the numbers: infection score: higher = more virus-infected cells; cell count: higher = more cells in the well. Call rule: 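Low infection ranks in the two replicates (chance level up to 0.065) followed by a retest with a 1.5-fold or larger significant decrease, p below 0.05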. Meaning of the calls: active = confirmed: knock-down lowers infection; inactive = not picked or not confirmed.
The screen tested about 22,000 reagents; shown is an unselected part of those that have a named target and a result. In the full data, 116 (0.52%) are marked active. 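Calls depend on retest data that are not deposited; infection was ranked per plate without normalising between plates; the unit of the infection score is not given.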 Raw values vary from plate to plate and are shown uncorrected. A number with no mark means an inactive call. A plus sign joins genes that one reagent is predicted to hit. The record does not give: the amount of reagent, the time to read-out.

| predicted target | DRSC id | infection score, replicate 1 | infection score, replicate 2 | cell count, replicate 1 | cell count, replicate 2 |
| --- | --- | --- | --- | --- | --- |
| CG6638 | DRSC10680 | 1.62 | 4.21 | 6243 | 6581 |
| CG6638 | DRSC24246 | 10.1 | 9.39 | 5972 | 5603 |
| Drep3 (DNA fragmentation factor-related protein 3) | DRSC07529 | 2.11 | 1.78 | 6589 | 5949 |
| Drep3 (DNA fragmentation factor-related protein 3) | DRSC22344 | 4.49 | 3.85 | 6497 | 6944 |
| sv (shaven) | DRSC17221 | 5.56 | 1.41 | 5254 | 6261 |
| sv (shaven) | DRSC27256 | 15.2 | 9.42 | 6626 | 6054 |
| RNaseP:RNA (Ribonuclease P RNA) | DRSC22967 | 2.69 | 3.25 | 6323 | 6956 |
| Ance (Angiotensin converting enzyme) | DRSC01865 | 15.4 | 9.71 | 5882 | 5467 |
| CG40005 (retired record) + cta | DRSC03763 | 1.89 | 11.2 | 6204 | 5808 |
| CG16812 | DRSC02519 | 12.4 | 2.41 | 5993 | 6348 |
| CG16812 | DRSC25180 | 1.54 | 1.63 | 5520 | 5902 |
| CG4511 | DRSC15589 | 5.5 | 7.32 | 6729 | 1435 |
| CG4511 | DRSC28640 | 12.2 | – | 2239 | 392 |
| CG18731 | DRSC15377 | – | – | 309 | 314 |
| OS9 (Olfactory-specific 9) | DRSC02700 | 18.6 | 3.02 | 5156 | 6810 |
| OS9 (Olfactory-specific 9) | DRSC27743 | 35.2 | 25.1 | 5311 | 5721 |
| asRNA:Eig63F-2 (antisense RNA:Ecdysone-induced gene 63F 2) | DRSC27877 | 5.66 | 5.44 | 6577 | 6049 |
| CG15155 | DRSC02456 | 0.68 | 19.8 | 730 | 5998 |
| Ndc80 | DRSC20221 | 11.4 | 15.7 | 6330 | 6251 |
| Ndc80 | DRSC21726 | 10.2 | 9.85 | 4130 | 2750 |
| mop (myopic) | DRSC11065 | 5.6 | 4.77 | 5590 | 6284 |
| mop (myopic) | DRSC28489 | 0.27 | 0.52 | 367 | 384 |
| CG31534 (retired record) | DRSC12141 | 6.49 | 14.8 | 6668 | 3981 |
| CG31534 (retired record) | DRSC12289 | 7.86 | 4.52 | 5041 | 6610 |
| CG31534 (retired record) | DRSC27803 | 6.02 | 7.97 | 6459 | 6767 |
| ppk26 (pickpocket 26) | DRSC10991 | 2.24 | 3.75 | 6342 | 5600 |
| ppk26 (pickpocket 26) | DRSC25876 | 2.71 | 3.97 | 6129 | 5971 |
| KFase (Kynurenine formamidase) | DRSC03258 | 2.38 | 2.57 | 6434 | 6648 |
| KFase (Kynurenine formamidase) | DRSC30035 | 4.61 | 9.67 | 6319 | 6243 |
| CG13679 | DRSC10037 | 23.7 | 7.57 | 5014 | 872 |
| CG13679 | DRSC22749 | 27.2 | 25.4 | 6504 | 6687 |
| CG13047 | DRSC09928 | 0.46 | 4.07 | 6237 | 6041 |
| CG13047 | DRSC25091 | 2.89 | 4.38 | 6013 | 5865 |
| Sec3 (Secretory 3) | DRSC10384 | 7.88 | 5.96 | 5849 | 6388 |
| Obp99c (Odorant-binding protein 99c) | DRSC16262 | – | – | 382 | 360 |
| Rpp30 (RNaseP protein p30) | DRSC00320 | 2.66 | 22.2 | 5946 | 5054 |
| CalpB (Calpain-B) | DRSC11109 | 6.69 | 5.34 | 6393 | 6400 |
| CalpB (Calpain-B) | DRSC25885 | 2.67 | 11.6 | 6738 | 5820 |
| Pdk1 (Phosphoinositide-dependent kinase 1) | DRSC08682 | 5.53 | 3.75 | 7500 | 7458 |
| Pdk1 (Phosphoinositide-dependent kinase 1) | DRSC27069 | 2.34 | 7.51 | 6666 | 6645 |
| CG15784 | DRSC18090 | 1.67 | 3.75 | 6151 | 6846 |
| CG15784 | DRSC25383 | 9.61 | 9.34 | 6709 | 6658 |
| Kap-alpha3 (karyopherin alpha3) | DRSC16976 | 1.19 | 2.66 | 2024 | 1619 |
| CG10979 | DRSC12153 | 6.03 | 21.7 | 6664 | 5423 |
| mthl13 (methuselah-like 13) | DRSC05238 | 3.85 | 2.98 | 5737 | 5778 |
| Ddrgk1 (DDRGK domain containing 1) | DRSC15897 | 3.53 | 2.91 | 6096 | 6079 |
| Ddrgk1 (DDRGK domain containing 1) | DRSC27688 | 5.12 | 17.5 | 6723 | 6323 |
| Dnai2 (dynein, axonemal, intermediate chain 2) | DRSC10575 | 1.99 | 2.29 | 6181 | 6101 |
| alpha-Est2 (alpha-Esterase-2) | DRSC12614 | 3.21 | 3.36 | 6270 | 6691 |
| sim (single-minded) | DRSC17054 | 13.6 | 5 | 6181 | 6640 |
| sim (single-minded) | DRSC28753 | 13.9 | – | 4632 | 412 |
| TwdlJ (TweedleJ) | DRSC15812 | – | 8.4 | 378 | 1868 |
| CG10194 | DRSC02025 | 10.1 | 6.47 | 6555 | 6117 |
| Obp19c (Odorant-binding protein 19c) | DRSC20528 | 7.65 | 1.12 | 3714 | 6143 |
| Sac1 (Sac1 phosphatase) | DRSC08622 | 1.66 | 4.08 | 6981 | 6380 |
| Sac1 (Sac1 phosphatase) | DRSC26886 | 3.1 | 11.1 | 6313 | 6346 |
| Kdm5 (Lysine demethylase 5) | DRSC03133 | 4.54 | 4.67 | 5307 | 5438 |
| Kdm5 (Lysine demethylase 5) | DRSC29570 | 19.4 | 28.4 | 3232 | 3942 |

Quoted from above, 8 entries:
| predicted target | DRSC id | infection score, replicate 1 | infection score, replicate 2 | cell count, replicate 1 | cell count, replicate 2 |
| --- | --- | --- | --- | --- | --- |
| CG13047 | DRSC09928 | 0.46 | 4.07 | 6237 | 6041 |
| CG13047 | DRSC25091 | 2.89 | 4.38 | 6013 | 5865 |
| Sec3 (Secretory 3) | DRSC10384 | 7.88 | 5.96 | 5849 | 6388 |
| Obp99c (Odorant-binding protein 99c) | DRSC16262 | – | – | 382 | 360 |
| Rpp30 (RNaseP protein p30) | DRSC00320 | 2.66 | 22.2 | 5946 | 5054 |
| CalpB (Calpain-B) | DRSC11109 | 6.69 | 5.34 | 6393 | 6400 |
| CalpB (Calpain-B) | DRSC25885 | 2.67 | 11.6 | 6738 | 5820 |
| Pdk1 (Phosphoinositide-dependent kinase 1) | DRSC08682 | 5.53 | 3.75 | 7500 | 7458 |
